The values below are quoted from earlier work in US20130115171A1, “NAV1.7-RELATED ASSAYS” (priority 2011, published 2013).

Chains of the proteins cited; added tags and fusions are not shown.
UniProt P04775, whole entry, looked up: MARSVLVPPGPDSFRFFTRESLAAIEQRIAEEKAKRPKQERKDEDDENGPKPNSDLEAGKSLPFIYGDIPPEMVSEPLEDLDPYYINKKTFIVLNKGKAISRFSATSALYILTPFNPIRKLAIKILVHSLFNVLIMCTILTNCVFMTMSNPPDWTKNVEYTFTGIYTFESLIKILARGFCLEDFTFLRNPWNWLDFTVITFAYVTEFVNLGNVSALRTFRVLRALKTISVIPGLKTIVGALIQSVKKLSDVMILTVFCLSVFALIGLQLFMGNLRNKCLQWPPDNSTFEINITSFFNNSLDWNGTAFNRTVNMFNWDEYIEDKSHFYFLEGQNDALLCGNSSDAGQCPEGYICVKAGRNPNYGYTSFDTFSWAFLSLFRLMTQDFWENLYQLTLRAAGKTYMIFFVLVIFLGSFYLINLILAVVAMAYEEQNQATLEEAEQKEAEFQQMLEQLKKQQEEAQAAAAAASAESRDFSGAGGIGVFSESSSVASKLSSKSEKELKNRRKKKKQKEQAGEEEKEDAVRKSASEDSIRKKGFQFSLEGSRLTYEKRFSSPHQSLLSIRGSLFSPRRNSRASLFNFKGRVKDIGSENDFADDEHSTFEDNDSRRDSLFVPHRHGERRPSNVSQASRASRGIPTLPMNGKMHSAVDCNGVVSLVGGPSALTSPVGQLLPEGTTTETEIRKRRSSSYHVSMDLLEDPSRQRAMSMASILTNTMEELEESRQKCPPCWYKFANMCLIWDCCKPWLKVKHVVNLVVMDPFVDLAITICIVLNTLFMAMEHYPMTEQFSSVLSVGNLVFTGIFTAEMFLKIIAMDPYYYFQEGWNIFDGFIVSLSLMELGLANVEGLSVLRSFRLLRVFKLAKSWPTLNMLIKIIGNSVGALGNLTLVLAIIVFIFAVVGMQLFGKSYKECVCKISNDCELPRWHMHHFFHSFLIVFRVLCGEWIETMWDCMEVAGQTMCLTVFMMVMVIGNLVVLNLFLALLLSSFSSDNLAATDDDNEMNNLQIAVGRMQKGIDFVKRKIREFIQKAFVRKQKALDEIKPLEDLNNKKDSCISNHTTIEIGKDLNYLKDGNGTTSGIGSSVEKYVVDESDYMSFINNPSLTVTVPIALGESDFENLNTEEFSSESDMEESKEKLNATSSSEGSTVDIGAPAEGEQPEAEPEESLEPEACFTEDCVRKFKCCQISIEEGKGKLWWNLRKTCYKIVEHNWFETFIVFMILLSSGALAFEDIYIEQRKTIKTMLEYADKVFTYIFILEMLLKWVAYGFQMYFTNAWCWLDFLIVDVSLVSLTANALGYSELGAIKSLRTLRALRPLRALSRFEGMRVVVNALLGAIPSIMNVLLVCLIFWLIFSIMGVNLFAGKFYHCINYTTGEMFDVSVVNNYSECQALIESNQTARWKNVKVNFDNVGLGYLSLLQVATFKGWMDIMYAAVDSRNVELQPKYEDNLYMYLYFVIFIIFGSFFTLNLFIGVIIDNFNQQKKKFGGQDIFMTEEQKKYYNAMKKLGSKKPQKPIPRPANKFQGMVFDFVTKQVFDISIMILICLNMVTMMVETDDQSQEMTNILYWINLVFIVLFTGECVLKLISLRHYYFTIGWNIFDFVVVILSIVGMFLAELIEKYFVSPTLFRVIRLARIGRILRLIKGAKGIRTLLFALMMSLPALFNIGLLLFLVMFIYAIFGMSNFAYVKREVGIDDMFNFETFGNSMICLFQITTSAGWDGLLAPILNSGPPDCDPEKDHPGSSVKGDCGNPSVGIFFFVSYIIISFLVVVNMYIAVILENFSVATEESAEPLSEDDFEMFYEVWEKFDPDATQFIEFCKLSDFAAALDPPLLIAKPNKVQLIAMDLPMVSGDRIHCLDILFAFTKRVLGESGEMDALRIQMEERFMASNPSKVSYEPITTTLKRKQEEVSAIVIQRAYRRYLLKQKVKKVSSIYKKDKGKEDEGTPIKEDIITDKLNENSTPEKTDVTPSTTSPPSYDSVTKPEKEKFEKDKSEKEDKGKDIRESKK

One data set has as its target NaV1.2 (Rattus norvegicus, UniProt P04775). As to conditions: read-out: TTX IC50; cited from earlier work.
The next data set deals with NaV1.1 (Rattus norvegicus, UniProt P04774). The following applies: read-out: TTX IC50; cited from earlier work.

With `NC1=N[C@H](O)[C@H]2[C@H]3O[C@]4(O)O[C@@H]([C@@H](O)[C@@]2(N1)[C@@H]4O)[C@]3(O)CO` [TTX, tetrodotoxin], the IC50 at NaV1.2 and at NaV1.1 was 10 nM throughout.
